Literature values in patent publication US20230210890A1, “COMPOSITIONS AND METHODS OF TREATING COVID-19 WITH HEPARIN OR OTHER NEGATIVELY CHARGED MOLECULES” (Siemens Healthcare Diagnostics Inc., priority 2020, published 2023).

System: hospitalized patients with Covid-19
Conditions: WHO Solidarity Trial; cited from earlier work

B1: interferon beta-1a (protein, UniProt P01574 22-187, looked up)
Interferon beta: MSYNLLGFLQRSSNFQCQKLLWQLNGRLEYCLKDRMNFDIPEEIKQLQQFQKEDAALTIYEMLQNIFAIFRQDSSSTGWNETIVENLLANVYHQINHLKTVLEEKLEKEDFTRGKLMSSLHLKRYYGRILHYLKAKEYSHCAWTIVRVEILRNFYFINRLTGYLRN
notes: repurposed anti-viral drug
effect on hospitalized patients with Covid-19: little or no effect
